Anti-infective test results gathered from many reports (values: NIAID ChemDB through PubChem).

Common to all: host cell toxicity; read-out: CC50

CCn is the concentration with n% toxicity to the cells. Conditions beyond the fields shown may differ between rows. Blank or dashed fields: not listed here.

smiles	cell line	read by	value
CC(CN1CCc2ccccc2C1)NC(=O)Nc1ccc(C(F)(F)F)cc1	PBMC		50 µM
CCOC(=O)COc1ccc(C(O)O)cc1	BJ		>20 µM
O=C(NCCc1ccc2c(n1)NCCC2)Nc1cccc(C(F)(F)F)c1	PBMC		25 µM
COC(=O)N[C@@H](Cc1ccccc1Cl)C(=O)N[C@H](CCC[C@@H](CO)N(CCC(C)C)S(=O)(=O)c1ccc([C@@H](C)O)cc1)C1CC1	T lymphoid cells	microscopy	>10 µM
CCC1(Cc2ccccc2)OS(=O)(=O)C=C1OCc1ccc(Cl)c(Cl)c1	HEL fibroblasts		36.7 µM
CC[C@@H](CCC[C@@H](CO)N(CCC(C)C)S(=O)(=O)c1ccc(N)cc1)NC(=O)[C@@H](NC(=O)OC)C1c2ccccc2C=Cc2ccccc21	T lymphoid cells	microscopy	>10 µM
COC(=O)C1=C(CN2CC(F)(F)[C@@H]3[C@H]2CON3C[C@](C)(O)C(C)(C)C(=O)O)NC(c2nccs2)=N[C@H]1c1ccc(F)c(F)c1C	HepG2.2.15	WST / absorbance	>6.25 µM
CC(C)C[C@@H]1NC(=O)[C@H](Cc2c[nH]c3ccccc23)NC(=O)CNC(=O)[C@H](CC(N)=O)NC(=O)[C@H]([C@@H](C)O)NC(=O)[C@@H](CC(C)C)NC1=O	Colorectal carcinoma	MTT	>30 µM
NN1CC[N+]2(CC1)CC[N+]1(CCN(N)CC1)CC2	L929		113.7 µg/mL
CCCc1cc(=O)oc2c3c(c4c(c12)OC(C)(C)[C@H](O)[C@@H]4O)O[C@H](C)[C@@H](C)[C@@H]3O	CV-1	neutral red	50 µg/mL
O=C(NCCc1ccc2c(n1)NCCC2)Nc1ccccc1OCc1ccccc1	PBMC		5.6 µM
NC(=S)Nc1cccc(OCCCCCOc2ccncc2)c1	Ava5-EG(delta4AB)SEAP	MTS	>1 µM
O=C1NC(=NCCc2ccc(Cl)c(Cl)c2)S/C1=C\c1ccc(-c2ccc(C(=O)O)c(O)c2)o1	BAE	MTT	>100 µM
Oc1[nH]c2ccc(F)cc2c1N=NC(=S)Nc1ccccc1	hRD		>25 µM
CCOC(=O)C1=C(CN2CC(F)(F)[C@@H]3[C@H]2CON3C[C@@H](F)C(C)(C)C(=O)O)NC(c2nccs2)=N[C@H]1c1cccc(F)c1Cl	HepG2.2.15	WST / absorbance	76.7 µM
COC(=O)N[C@H](C(=O)N[C@@H](C)CCC[C@@H](CO)N(CCC(C)C)S(=O)(=O)c1ccc2ncsc2c1)C(c1ccccc1)c1ccccc1	T lymphoid cells	microscopy	>10 µM
CCOC(=O)CCCCCOc1cccc(CN(C(=O)c2ccc(-c3cccc(OCC)c3)cc2)C(C)C)c1	HEK 293		>20 µM
O=C(O)c1ccc(-c2ccc(/C=C3\SC(=S)N(CCc4ccc(Cl)c(Cl)c4)C3=O)o2)cc1O	HEK 293	MTT	29 µM
CC(C)C[C@@H]1NC(=O)[C@H](Cc2c[nH]c3ccccc23)NC(=O)[C@@H](CCCCN)NC(=O)[C@H](CC(N)=O)NC(=O)[C@H](CC(C)C)NC(=O)[C@@H](CC(C)C)NC1=O	Lung carcinoma cells	MTT	>30 µM
O=c1[nH]c(=O)n([C@@H]2O[C@H](CO)[C@@H](O)[C@@H]2O)cc1/C=C/Br	NIH 3T3	cell count	530 µM
COC(=O)N[C@@H](Cc1ccccc1Br)C(=O)N[C@H](CCC[C@@H](CO)N(C(C)C)S(=O)(=O)c1ccc(CO)cc1)C1CC1	T lymphoid cells	microscopy	>10 µM
O=C(NCCc1ccc2c(n1)NCCC2)Nc1c(F)cccc1C(F)(F)F	PBMC		12 µM
Cc1ccccc1NC(=S)N=Nc1c(O)[nH]c2ccccc12	hRD		>25 µM
NC(=S)Nc1ccc(OCCCCCOc2ccc(F)cc2F)cc1	Ava5-EG(delta4AB)SEAP	MTS	>1 µM
COC(=O)N[C@@H](Cc1ccccc1Br)C(=O)N[C@@H](C)CCC[C@@H](CO)N(C(C)C)S(=O)(=O)c1ccc(CO)cc1	T lymphoid cells	microscopy	>10 µM
CCCC1(Cc2ccccc2)OS(=O)(=O)C=C1OCc1ccccc1	HEL fibroblasts		>200 µM
CCOC(=O)C1=C(CN2CC(F)(F)[C@@H]3[C@H]2CON3CC[C@@](C)(O)C(=O)O)NC(c2nccs2)=N[C@H]1c1ccc(F)c(F)c1Cl	HepG2.2.15	WST / absorbance	>100 µM
COc1ccc(NC(=S)N=Nc2c(O)[nH]c3ccccc23)cc1	hRD		>25 µM
CC[C@@H]1/C=C(\C)C[C@H](C)C[C@H](OC)[C@H]2O[C@@](O)(C(=O)C(=O)N3CCCC[C@H]3C(=O)O[C@H](/C(C)=C/[C@H]3CC[C@H](O)[C@H](OC)C3)[C@H](C)[C@@H](O)CC1=O)[C@H](C)C[C@@H]2OC	KELA		54 µg/mL
Nc1nc(=O)n([C@@H]2O[C@H](CO)[C@@H](O)[C@@H]2F)cc1I	NIH 3T3	cell count	30 µM
CCOC(=O)[C@@]1(C)CC[C@]2(C)CC[C@]3(C)C(=CC(=O)[C@@H]4[C@@]5(C)CC/C(=N\OCc6cccc(C#N)c6)C(C)(C)[C@@H]5CC[C@]43C)[C@@H]2C1	K562	MTT	45.59 µM
CCOC(=O)C1=C(CN2CC(F)(F)[C@H]3[C@@H]2CCN3C[C@@H](O)C(C)(C)C(=O)O)NC(c2nccs2)=N[C@H]1c1cccc(F)c1C	HepG2.2.15	WST / absorbance	6.5 µM
Cc1nc(N2CC[N+]3(CC2)CC[N+]2(CCN(c4nc(C)[nH]c(=O)c4[N+](=O)[O-])CC2)CC3)c([N+](=O)[O-])c(=O)[nH]1	K562		>331.4 µg/mL
CCOC(=O)CCCCCOc1cccc(CN(C(=O)c2ccc(-c3ccco3)cc2)C(C)C)c1	HEK 293		>20 µM
CCC(C)[C@@H]1NC(=O)[C@@H](C(C)CC)NC(=O)[C@H](CC(C)C)NC(=O)[C@H](Cc2c[nH]c3ccccc23)NC(=O)CNC(=O)[C@H](CC(N)=O)NC1=O	Colorectal carcinoma cells	MTT	>30 µM
CC[C@@H](CCC[C@@H](CO)N(CCC(C)C)S(=O)(=O)c1ccc(N)c(Br)c1)NC(=O)[C@@H](NC(=O)OC)C(c1ccccc1)c1ccccc1	T lymphoid cells	microscopy	>10 µM
O=C(NCCc1ccc2c(n1)NCCC2)Nc1ccc(F)c(C(F)(F)F)c1	PBMC		2.4 µM
CCOC(=O)[C@@]1(C)CC[C@]2(C)CC[C@]3(C)C(=CC(=O)[C@@H]4[C@@]5(C)CC/C(=N\OCc6ccccc6Br)C(C)(C)[C@@H]5CC[C@]43C)[C@@H]2C1	K562	MTT	53.31 µM
CCCc1cc(=O)oc2c3c(c4c(c12)OC(C)(C)[C@H](O)[C@H]4OC(=O)c1cccc(Cl)c1)O[C@H](C)[C@@H](C)C3=O	CV-1	neutral red	2 µg/mL
CC(C)C[C@@H]1NC(=O)[C@H](Cc2c[nH]c3ccccc23)NC(=O)C(C)(C)NC(=O)[C@H](CCCCN)NC(=O)[C@H](C(C)C)NC(=O)[C@@H](CC(C)C)NC1=O	Colorectal carcinoma	MTT	>30 µM
CCCN([C@H](CO)CCC[C@H](CC)NC(=O)[C@H](Cc1cccc2ccccc12)NC(=O)OC)S(=O)(=O)c1ccc(CO)cc1	T lymphoid cells	microscopy	>10 µM
O=C1N=C(N2CCOCC2)S/C1=C\c1ccc(-c2ccc(C(=O)O)c(O)c2)o1	MCF-7	MTT	21 µM
CCOC(=O)[C@@]1(C)CC[C@]2(C)CC[C@]3(C)C(=CC(=O)[C@@H]4[C@@]5(C)CC/C(=N\OCc6ccc7ccccc7c6)C(C)(C)[C@@H]5CC[C@]43C)[C@@H]2C1	K562	MTT	>100 µM
Nc1nc(=O)n([C@H]2C[C@H](O)[C@@H](CO)O2)cc1/C=C/Cl	RF	cell count	469 µM
CC(C)C[C@@H]1NC(=O)[C@H](Cc2c[nH]c3ccccc23)NC(=O)[C@@H](CC(C)C)NC(=O)[C@H](CCCCN)NC(=O)[C@H](C(C)C)NC(=O)[C@@H](CC(C)C)NC1=O	Lung carcinoma cells	MTT	>30 µM
CCCN(Cc1ccc(OCC(=O)O)cc1)C(=O)c1ccc(-c2ccc3c(c2)OCO3)cc1	BJ		>20 µM
COc1cccc(NC(=S)N=Nc2c(O)[nH]c3ccccc23)c1	hRD		>25 µM
CCCc1cc(=O)oc2cc(O)c3c(c12)OC(C)(C)C=C3	CV-1	neutral red	2 µg/mL
CC(=O)c1cccc(-c2ccc(C(=O)N(Cc3cccc(OCCCCCC(=O)OC(=O)O)c3)C(C)C)cc2)c1	RAJI		>20 µM
O=C(c1c[nH]c2ccccc12)[C@H](O)CO	SMMC-7721	MTT	>40 µg/mL
O=C(NCCc1ccc2c(n1)NCCC2)Nc1ccc2cc[nH]c2c1	PBMC		0.89 µM
COC(=O)C1=C(CN2CC(F)(F)[C@@H]3[C@H]2CON3C[C@@H](OC)C(C)(C)C(=O)O)NC(c2ncoc2C)=N[C@H]1c1ccc(F)cc1Cl	HepG2.2.15	WST / absorbance	>100 µM
CCCc1cc(=O)oc2cc(OS(=O)(=O)c3ccc(C)cc3)c3c(c12)OC(C)(C)C=C3	CV-1	neutral red	>100 µg/mL
CC(C)C[C@@H]1NC(=O)[C@H](Cc2c[nH]c3ccccc23)NC(=O)CNC(=O)[C@H](CCCCN)NC(=O)[C@H](C(C)C)NC(=O)[C@@H](CC(C)C)NC1=O	Lung carcinoma cells	MTT	28.5 µM
CC(C)c1ccc(S(=O)(=O)NCCc2ccc3c(n2)NCCC3)cc1F	PBMC		50 µM
CC(C)C[C@@H]1NC(=O)[C@H](Cc2c[nH]c3ccccc23)NC(=O)[C@H](CCCN=C(N)N)NC(=O)[C@H](CCCCN)NC(=O)[C@H](C(C)C)NC(=O)[C@@H](CC(C)C)NC1=O	Colorectal carcinoma	MTT	>30 µM
CCN(CC)CCNC(=S)Nc1ccc2c(c1)Cc1cc(Br)ccc1-2	Ava5-EG(delta4AB)SEAP	MTS	>1 µM
CCOC(=O)[C@@]1(C)CC[C@]2(C)CC[C@]3(C)C(=CC(=O)[C@@H]4[C@@]5(C)CC/C(=N\OCc6c(C)noc6C)C(C)(C)[C@@H]5CC[C@]43C)[C@@H]2C1	CT26	MTT	7.39 µM
CCC1(Cc2ccccc2)OS(=O)(=O)C=C1OS(=O)(=O)c1ccc(C)cc1	HEL fibroblasts		109 µM
Nc1c(N2CC[N+]3(CC2)CC[N+]2(CCN(c4nc[nH]c(=O)c4N)CC2)CC3)nc[nH]c1=O	L929		>82.4 µg/mL
C=CCOC1=CS(=O)(=O)OC1(CC)Cc1ccccc1	HEL fibroblasts		>200 µM
CCOC(=O)[C@@]1(C)CC[C@]2(C)CC[C@]3(C)C(=CC(=O)[C@@H]4[C@@]5(C)CC/C(=N\OCc6cc(F)cc(F)c6)C(C)(C)[C@@H]5CC[C@]43C)[C@@H]2C1	K562	MTT	19.65 µM
CCOC(=O)CCCCCOc1cccc(CN(C(=O)c2ccccc2)C(C)C)c1	BJ		>20 µM
NC(=S)Nc1cccc(OCCCCCOc2ccc(N3CCCCC3)cc2)c1	Ava5-EG(delta4AB)SEAP	MTS	>1 µM
O=c1[nH]c(=O)n([C@H]2C[C@H](O)[C@@H](CO)O2)cc1I	RF	cell count	≥367 µM
NC(=S)Nc1cccc(OCCCCCCOc2ccc(-c3ccccc3)cc2)c1	Ava5-EG(delta4AB)SEAP	MTS	>1 µM
O=c1[nH]c(=O)n([C@H]2C[C@H](O)[C@@H](CO)O2)cc1-c1ccc(Br)s1	OMK	cell count	257 µM
O=C(NCCCc1ccc2c(n1)NCCC2)Nc1ccc(C(F)(F)F)cc1	PBMC		25 µM
COC(=O)C1=C(CN2CC(F)(F)[C@@H]3[C@H]2CON3C[C@H](O)C(C)(C)C(=O)O)NC(c2nccs2)=N[C@H]1c1ccc(F)c(F)c1Cl	HepG2.2.15	WST / absorbance	>100 µM
NC(=S)Nc1cccc(OCCCCOc2ccccc2-c2ccccc2)c1	Ava5-EG(delta4AB)SEAP	MTS	>1 µM
CCc1nc(CCC(=O)O)cnc1CCC(=O)O	SMMC-7721	MTT	>40 µg/mL
Cn1ncc2c(NC(=O)NCCc3ccc4c(n3)NCCC4)cccc21	PBMC		22 µM
CSc1nc(Cl)c(C=O)c(N2CC[N+]3(CC2)CC[N+]2(CCN(c4nc(SC)nc(Cl)c4C=O)CC2)CC3)n1	L929		>55.2 µg/mL

Repeating the final 9 entries:

O=c1[nH]c(=O)n([C@H]2C[C@H](O)[C@@H](CO)O2)cc1I ; cell line: RF ; read by: cell count ; value: ≥367 µM
NC(=S)Nc1cccc(OCCCCCCOc2ccc(-c3ccccc3)cc2)c1 ; cell line: Ava5-EG(delta4AB)SEAP ; read by: MTS ; value: >1 µM
O=c1[nH]c(=O)n([C@H]2C[C@H](O)[C@@H](CO)O2)cc1-c1ccc(Br)s1 ; cell line: OMK ; read by: cell count ; value: 257 µM
O=C(NCCCc1ccc2c(n1)NCCC2)Nc1ccc(C(F)(F)F)cc1 ; cell line: PBMC ; value: 25 µM
COC(=O)C1=C(CN2CC(F)(F)[C@@H]3[C@H]2CON3C[C@H](O)C(C)(C)C(=O)O)NC(c2nccs2)=N[C@H]1c1ccc(F)c(F)c1Cl ; cell line: HepG2.2.15 ; read by: WST / absorbance ; value: >100 µM
NC(=S)Nc1cccc(OCCCCOc2ccccc2-c2ccccc2)c1 ; cell line: Ava5-EG(delta4AB)SEAP ; read by: MTS ; value: >1 µM
CCc1nc(CCC(=O)O)cnc1CCC(=O)O ; cell line: SMMC-7721 ; read by: MTT ; value: >40 µg/mL
Cn1ncc2c(NC(=O)NCCc3ccc4c(n3)NCCC4)cccc21 ; cell line: PBMC ; value: 22 µM
CSc1nc(Cl)c(C=O)c(N2CC[N+]3(CC2)CC[N+]2(CCN(c4nc(SC)nc(Cl)c4C=O)CC2)CC3)n1 ; cell line: L929 ; value: >55.2 µg/mL